Reference: patent US20200069664A1, “METHODS FOR TREATING INFECTION” (Salix Pharmaceuticals, Ltd, priority 2010, published 2020)

Tested on: C difficile isolates
Assay: In vitro susceptibility of C difficile isolates (agar dilution for rifaximin, Etest for rifampin)
Details: rifaximin alone n = 11; rifampin n = 28

(2S,16Z,18E,20S,21S ,22R, 23R,24R,255,265,275,28E)-5,6,21,23,25 Pentahydroxy-27-methoxy-2,4,11,16,20,22,24,26-octamethyl-2,7-(epoxypentadeca-(1,11,13) trienimino) benzofuro (4,5-e) pyrido(1,2,-a) benzimidazole-1,15(2H)-dione,25-acetate [Rifaximin]
Resistant isolates with genotype A+ B+ BT+ tcdC-del+, %: (0) %
Resistant isolates with genotype A+ B+ BT+ tcdC-del−, %: (18) %
Resistant isolates with genotype A+ B+ BT− tcdC-del+, %: (9) %
Resistant isolates with genotype A+ B+ BT− tcdC-del−, %: (55) %
Resistant isolates with genotype A− B− BT− tcdC-del−, %: (18) %
